Measured values published in article PMC3978507, “Fusion of a Short HA2-Derived Peptide Sequence to Cell-Penetrating Peptides Improves Cytosolic Uptake, but Enhances Cytotoxic Activity” (Pharmaceuticals, 2009).

Test: CD spectroscopy
Assay type: physicochemical
Conditions: 20 µM peptide, 10 mM phosphate buffer pH 7 with 50% TFE, 20 °C

With “GLRKRLRKFRNKIKEK [sC18, new cell-penetrating peptide, residues 106-121 of the antimicrobial peptide CAP18]” the “R-value (ratio of molar ellipticity at 222 nm and 207 nm), 50% TFE” value was 0.78.
